Experimental data taken from ChEMBL document CHEMBL5104150, “Synthesis and activity evaluation of selenazole-coupled CPI-1 irreversible bifunctional inhibitors for botulinum toxin A light chain” (2022).

Amino acid sequences for entries named in this document (tags omitted). Residues count along the entry.
UniProt P0DPI0, 2-448 limits assumed: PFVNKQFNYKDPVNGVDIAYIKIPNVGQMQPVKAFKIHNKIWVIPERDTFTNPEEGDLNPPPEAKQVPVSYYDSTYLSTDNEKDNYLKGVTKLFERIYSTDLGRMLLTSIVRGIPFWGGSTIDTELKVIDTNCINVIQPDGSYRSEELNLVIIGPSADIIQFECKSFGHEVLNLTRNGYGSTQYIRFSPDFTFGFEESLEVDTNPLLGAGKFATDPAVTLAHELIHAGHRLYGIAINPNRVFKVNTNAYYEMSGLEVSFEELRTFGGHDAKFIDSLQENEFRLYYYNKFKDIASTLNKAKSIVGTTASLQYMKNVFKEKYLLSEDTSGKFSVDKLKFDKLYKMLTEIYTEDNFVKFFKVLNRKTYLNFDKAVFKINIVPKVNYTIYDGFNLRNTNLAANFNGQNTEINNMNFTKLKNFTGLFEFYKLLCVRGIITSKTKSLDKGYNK

What follows are molecules tested against T1, Botulinum neurotoxin type A (Clostridium botulinum, UniProt P0DPI0) (assay: Inhibition of Clostridium botulinum BoNT/A light chain).

Structure (SMILES) | IC50 [µM]
O=C(O)CCCCCn1[se]c2ccccc2c1=O | 5.13
O=C(O)CCCn1[se]c2ccccc2c1=O | 6.78
O=C(O)Cc1ccc(-n2[se]c3ccccc3c2=O)cc1 | 0.81
O=C(O)CCCc1ccc(C2[Se]c3ccccc3C2=O)cc1 (stereo not given) | 5.28
O=C(O)CCc1ccc(-n2[se]c3ccccc3c2=O)cc1 | 0.42

Each molecule was assayed against T1, Botulinum neurotoxin type A (assay: Inhibition of Clostridium botulinum BoNT/A light chain (1 to 424 residues) using SNAPtide as substrate by FRET assay).

Structure (SMILES) | IC50 [µM]
CC(C)C[C@H](NC(=O)[C@@H]1CSSC[C@H](NC(=O)c2ccc(-n3[se]c4ccccc4c3=O)cc2)C(=O)N[C@@H](CCN)C(=N)N[C@@H](CCCNC(=N)N)C(=O)N[C@@H](Cc2c[nH]c3ccccc23)C(=O)N[C@@H]([C@@H](C)O)C(=O)N[C@@H](CCCCN)C(=O)N1)C(=O)O | 2.98
CC(C)C[C@H](NC(=O)[C@@H]1CSSC[C@H](NC(=O)CCc2ccc(-n3[se]c4ccccc4c3=O)cc2)C(=O)N[C@@H](CCN)C(=O)N[C@@H](CCCNC(=N)N)C(=O)N[C@@H](Cc2c[nH]c3ccccc23)C(=O)N[C@@H]([C@@H](C)O)C(=O)N[C@@H](CCCCN)C(=O)N1)C(=O)O | 2.09
CC(C)C[C@H](NC(=O)[C@@H]1CSSC[C@H](NC(=O)CCCn2[se]c3ccccc3c2=O)C(=O)N[C@@H](CCN)C(=O)N[C@@H](CCCNC(=N)N)C(=O)N[C@@H](Cc2c[nH]c3ccccc23)C(=O)N[C@@H]([C@@H](C)O)C(=O)N[C@@H](CCCCN)C(=O)N1)C(=O)O | 1.17
CC(C)C[C@H](NC(=O)[C@@H]1CSSC[C@H](NC(=O)CNC(=O)CNC(=O)CCc2ccc(-n3[se]c4ccccc4c3=O)cc2)C(=O)N[C@@H](CCN)C(=O)N[C@@H](CCCNC(=N)N)C(=O)N[C@@H](Cc2c[nH]c3ccccc23)C(=O)N[C@@H]([C@@H](C)O)C(=O)N[C@@H](CCCCN)C(=O)N1)C(=O)O | 1.77
CC(C)C[C@H](NC(=O)[C@@H]1CSSC[C@H](NC(=O)Cc2ccc(-n3[se]c4ccccc4c3=O)cc2)C(=O)N[C@@H](CCN)C(=O)N[C@@H](CCCNC(=N)N)C(=O)N[C@@H](Cc2c[nH]c3ccccc23)C(=O)N[C@@H]([C@@H](C)O)C(=O)N[C@@H](CCCCN)C(=O)N1)C(=O)O | 2.24
CC(C)C[C@H](NC(=O)[C@@H]1CSSC[C@H](N)C(=O)N[C@@H](CCN)C(=O)N[C@@H](CCCNC(=N)N)C(=O)N[C@@H](Cc2c[nH]c3ccccc23)C(=O)N[C@@H]([C@@H](C)O)C(=O)N[C@@H](CCCCN)C(=O)N1)C(N)=O | 0.27
CC(C)C[C@H](NC(=O)[C@@H]1CSSC[C@H](NC(=O)CNC(=O)CCc2ccc(-n3[se]c4ccccc4c3=O)cc2)C(=O)N[C@@H](CCN)C(=O)N[C@@H](CCCNC(=N)N)C(=O)N[C@@H](Cc2c[nH]c3ccccc23)C(=O)N[C@@H]([C@@H](C)O)C(=O)N[C@@H](CCCCN)C(=O)N1)C(=O)O | 4.13
CC(C)C[C@H](NC(=O)[C@@H]1CSSC[C@H](N)C(=O)N[C@@H](CCN)C(=O)N[C@@H](CCCNC(=N)N)C(=O)N[C@@H](Cc2c[nH]c3ccccc23)C(=O)N[C@@H]([C@@H](C)O)C(=O)N[C@@H](CCCCN)C(=O)N1)C(=O)NCCNC(=O)Cc1ccc(-n2[se]c3ccccc3c2=O)cc1 | 0.5
CC(C)C[C@H](NC(=O)[C@@H]1CSSC[C@H](NC(=O)CCCCCn2[se]c3ccccc3c2=O)C(=O)N[C@@H](CCN)C(=O)N[C@@H](CCCNC(=N)N)C(=O)N[C@@H](Cc2c[nH]c3ccccc23)C(=O)N[C@@H]([C@@H](C)O)C(=O)N[C@@H](CCCCN)C(=O)N1)C(=O)O | 1.2
NCCNC(=O)Cc1ccc(-n2[se]c3ccccc3c2=O)cc1 | > 100
